Source: paper PMC11945750, “Structural and Energetic Evidence Supports the Non-Covalent Phosphate Cyclization by the Class II Phospholipase D from Loxosceles intermedia” (2025)

Protein sequences, listed by entry. Tags and fused reporters are not part of them. Residues count along the entry.
UniProt P0CE80, 27-306 limits assumed: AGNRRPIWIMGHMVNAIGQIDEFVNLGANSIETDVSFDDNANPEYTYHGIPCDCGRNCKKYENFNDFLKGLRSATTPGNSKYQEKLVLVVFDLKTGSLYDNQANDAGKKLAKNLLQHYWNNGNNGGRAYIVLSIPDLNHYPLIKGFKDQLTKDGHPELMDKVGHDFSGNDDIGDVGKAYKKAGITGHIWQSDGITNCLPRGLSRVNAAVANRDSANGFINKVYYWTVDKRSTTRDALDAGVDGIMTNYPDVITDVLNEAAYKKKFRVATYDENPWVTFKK

Target: Loxosceles intermedia PLD (class II phospholipase D) (Loxosceles intermedia, UniProt P0CE80)
Experiment: X-ray crystal structure (re-refinement of 3RLH data)
Details: active site, Mg2+ bound; crystallisation pH 7.5; ligand assigned from electron density in place of PEG4, two conformations

NC1(CO)COP(=O)(O)OC1 (stereo not shown)
X-ray crystal structure (re-refinement of 3RLH data): The newly positioned ligand at the active site is a known compound
